Assay results published in US20220033460A1, “IDENTIFICATION AND USE OF T CELL EPITOPES IN DESIGNING DIAGNOSTIC AND THERAPEUTIC APPROACHES FOR COVID-19” (priority 2020, published 2022).

B1: TCR_49: TCR to … / A*24:02 (protein)
TCR alpha: QTVTQSQPEMSVQEAETVTLSCTYDTSESDYYLFWYKQPPSRQMILVIRQEAYKQQNATENRFSVNFQKAAKSFSLKISDSQLGDAAMYFCAYTENNARLMFGDGTQLVVKPNIQNPDPAVYQLRDSKSSDKSVCLFTDFDSQTNVSQSKDSDVYITDKTVLDMRSMDFKSNSAVAWSNKSDFACANAFNNSIIPEDTFFPSPESSCDVKLVEKSFETDTNLNFQNLSVIGFRILLLKVAGFNLLMTLRLWSS
TCR beta: EAQVTQNPRYLITVTGKKLTVTCSQNMNHEYMSWYRQDPGLGLRQIYYSMNVEVTDKGDVPEGYKVSRKEKRNFPLILESPSPNQTSLYFCASSLQGTGYGYTFGSGTRLTVVEDLNKVFPPEVAVFEPSEAEISHTQKATLVCLATGFFPDHVELSWWVNGKEVHSGVSTDPQPLKEQPALNDSRYCLSSRLRVSATFWQNPRNHFRCQVQFYGLSENDEWTQDRAKPVTQIVSAEAWGRADCGFTSVSYQQGVLSATILYEILLGKATLYAVLVSALVLMAMVKRKDF
B2: TCR_66: TCR to … / A*24:02 (protein)
TCR alpha: RKEVEQDPGPFNVPEGATVAFNCTYSNSASQSFFWYRQDCRKEPKLLMSVYSSGNEDGRFTAQLNRASQYISLLIRDSKLSDSATYLCVVNRDNDMRFGAGTRLTVKPNIQNPDPAVYQLRDSKSSDKSVCLFTDFDSQTNVSQSKDSDVYITDKTVLDMRSMDFKSNSAVAWSNKSDFACANAFNNSIIPEDTFFPSPESSCDVKLVEKSFETDTNLNFQNLSVIGFRILLLKVAGFNLLMTLRLWSS
TCR beta: MSNQVLCCVVLCFLGANTVDGGITQSPKYLFRKEGQNVTLSCEQNLNHDAMYWYRQDPGQGLRLIYYSQIVNDFQKGDIAEGYSVSREKKESFPLTVTSAQKNPTAFYLCASMDLNTGELFFGEGSRLTVLEDLKNVFPPKVAVFEPSEAEISHTQKATLVCLATGFYPDHVELSWWVNGKEVHSGVSTDPQPLKEQPALNDSRYCLSSRLRVSATFWQNPRNHFRCQVQFYGLSENDEWTQDRAKPVTQIVSAEAWGRADCGFTSESYQQGVLSATILYEILLGKATLYAVLVSALVLMAMVKRKDSRG
B3: TCR_70: TCR to … / A*02:01 (protein)
TCR alpha: EDQVTQSPEALRLQEGESSSLNCSYTVSGLRGLFWYRQDPGKGPEFLFTLYSAGEEKEKERLKATLTKKESFLHITAPKPEDSATYLCAVHLNDYKLSFGAGTTVTVRANIQNPDPAVYQLRDSKSSDKSVCLFTDFDSQTNVSQSKDSDVYITDKTVLDMRSMDFKSNSAVAWSNKSDFACANAFNNSIIPEDTFFPSPESSCDVKLVEKSFETDTNLNFQNLSVIGFRILLLKVAGFNLLMTLRLWSS
TCR beta: MDTRVLCCAVICLLGAGLSNAGVMQNPRHLVRRRGQEARLRCSPVKGHSHVYWYRQLPEEGLKFMVYLQKENIIDESGMPKERFSAEFPKEGPSILRIQQVVRGDSAAYFCASSRPSGQGNNGYTFGSGTRLTVVEDLNKVFPPEVAVFEPSEAEISHTQKATLVCLATGFFPDHVELSWWVNGKEVHSGVSTDPQPLKEQPALNDSRYCLSSRLRVSATFWQNPRNHFRCQVQFYGLSENDEWTQDRAKPVTQIVSAEAWGRADCGFTSVSYQQGVLSATILYEILLGKATLYAVLVSALVLMAMVKRKDF
B4: TCR_63: TCR to … / A*02:01 (protein)
TCR alpha: RKEVEQDPGPFNVPEGATVAFNCTYSNSASQSFFWYRQDCRKEPKLLMSVYSSGNEDGRFTAQLNRASQYISLLIRDSKLSDSATYLCVVNMGRGYSTLTFGKGTMLLVSPDIQNPDPAVYQLRDSKSSDKSVCLFTDFDSQTNVSQSKDSDVYITDKTVLDMRSMDFKSNSAVAWSNKSDFACANAFNNSIIPEDTFFPSPESSCDVKLVEKSFETDTNLNFQNLSVIGFRILLLKVAGFNLLMTLRLWSS
TCR beta: DAGVTQSPTHLIKTRGQQVTLRCSPKSGHDTVSWYQQALGQGPQFIFQYYEEEERQRGNFPDRFSGHQFPNYSSELNVNALLLGDSALYLCASSPVAGGNTGELFFGEGSRLTVLEDLKNVFPPKVAVFEPSEAEISHTQKATLVCLATGFYPDHVELSWWVNGKEVHSGVSTDPQPLKEQPALNDSRYCLSSRLRVSATFWQNPRNHFRCQVQFYGLSENDEWTQDRAKPVTQIVSAEAWGRADCGFTSESYQQGVLSATILYEILLGKATLYAVLVSALVLMAMVKRKDSRG
B5: TCR_58: TCR to … / A*02:01 (protein)
TCR alpha: GQQLNQSPQSMFIQEGEDVSMNCTSSSIFNTWLWYKQDPGEGPVLLIALYKAGELTSNGRLTAQFGITRKDSFLNISASIPSDVGIYFCAGQRDDMRFGAGTRLTVKPNIQNPDPAVYQLRDSKSSDKSVCLFTDFDSQTNVSQSKDSDVYITDKTVLDMRSMDFKSNSAVAWSNKSDFACANAFNNSIIPEDTFFPSPESSCDVKLVEKSFETDTNLNFQNLSVIGFRILLLKVAGFNLLMTLRLWSS
TCR beta: DAGVIQSPRHEVTEMGQEVTLRCKPISGHNSLFWYRQTMMRGLELLIYFNNNVPIDDSGMPEDRFSAKMPNASFSTLKIQPSEPRDSAVYFCATSGDRGWQYFGPGTRLTVTEDLKNVFPPKVAVFEPSEAEISHTQKATLVCLATGFYPDHVELSWWVNGKEVHSGVSTDPQPLKEQPALNDSRYCLSSRLRVSATFWQNPRNHFRCQVQFYGLSENDEWTQDRAKPVTQIVSAEAWGRADCGFTSESYQQGVLSATILYEILLGKATLYAVLVSALVLMAMVKRKDSRG
B6: TCR_71: TCR to … / A*02:01 (protein)
TCR alpha: AQKVTQAQTEISVVEKEDVTLDCVYETRDTTYYLFWYKQPPSGELVFLIRRNSFDEQNEISGRYSWNFQKSTSSFNFTITASQVVDSAVYFCALTGNTGGFKTIFGAGTRLFVKANIQNPDPAVYQLRDSKSSDKSVCLFTDFDSQTNVSQSKDSDVYITDKTVLDMRSMDFKSNSAVAWSNKSDFACANAFNNSIIPEDTFFPSPESSCDVKLVEKSFETDTNLNFQNLSVIGFRILLLKVAGFNLLMTLRLWSS
TCR beta: EAGVAQSPRYKIIEKRQSVAFWCNPISGHATLYWYQQILGQGPKLLIQFQNNGVVDDSQLPKDRFSAERLKGVDSTLKIQPAKLEDSAVYLCASSLDSSLGYGYTFGSGTRLTVVEDLNKVFPPEVAVFEPSEAEISHTQKATLVCLATGFFPDHVELSWWVNGKEVHSGVSTDPQPLKEQPALNDSRYCLSSRLRVSATFWQNPRNHFRCQVQFYGLSENDEWTQDRAKPVTQIVSAEAWGRADCGFTSVSYQQGVLSATILYEILLGKATLYAVLVSALVLMAMVKRKDF
B7: TCR_69: TCR to … / A*02:01 (protein)
TCR alpha: QKEVEQNSGPLSVPEGAIASLNCTYSDRGSQSFFWYRQYSGKSPELIMSIYSNGDKEDGRFTAQLNKASQYVSLLIRDSQPSDSATYLCAVNEGGGSYIPTFGRGTSLIVHPYIQNPDPAVYQLRDSKSSDKSVCLFTDFDSQTNVSQSKDSDVYITDKTVLDMRSMDFKSNSAVAWSNKSDFACANAFNNSIIPEDTFFPSPESSCDVKLVEKSFETDTNLNFQNLSVIGFRILLLKVAGFNLLMTLRLWSS
TCR beta: KAGVTQTPRYLIKTRGQQVTLSCSPISGHRSVSWYQQTPGQGLQFLFEYFSETQRNKGNFPGRFSGRQFSNSRSEMNVSTLELGDSALYLCASSLAMGTSGGPYNEQFFGPGTRLTVLEDLKNVFPPKVAVFEPSEAEISHTQKATLVCLATGFYPDHVELSWWVNGKEVHSGVSTDPQPLKEQPALNDSRYCLSSRLRVSATFWQNPRNHFRCQVQFYGLSENDEWTQDRAKPVTQIVSAEAWGRADCGFTSESYQQGVLSATILYEILLGKATLYAVLVSALVLMAMVKRKDSRG
B8: TCR_65: TCR to … / A*02:01 (protein)
TCR alpha: RKEVEQDPGPFNVPEGATVAFNCTYSNSASQSFFWYRQDCRKEPKLLMSVYSSGNEDGRFTAQLNRASQYISLLIRDSKLSDSATYLCVVNRDTGNQFYFGTGTSLTVIPNIQNPDPAVYQLRDSKSSDKSVCLFTDFDSQTNVSQSKDSDVYITDKTVLDMRSMDFKSNSAVAWSNKSDFACANAFNNSIIPEDTFFPSPESSCDVKLVEKSFETDTNLNFQNLSVIGFRILLLKVAGFNLLMTLRLWSS
TCR beta: SQTIHQWPATLVQPVGSPLSLECTVEGTSNPNLYWYRQAAGRGLQLLFYSVGIGQISSEVPQNLSASRPQDRQFILSSKKLLLSDSGFYLCAWLRDMNTGELFFGEGSRLTVLEDLKNVFPPKVAVFEPSEAEISHTQKATLVCLATGFYPDHVELSWWVNGKEVHSGVSTDPQPLKEQPALNDSRYCLSSRLRVSATFWQNPRNHFRCQVQFYGLSENDEWTQDRAKPVTQIVSAEAWGRADCGFTSESYQQGVLSATILYEILLGKATLYAVLVSALVLMAMVKRKDSRG
B9: TCR_60: TCR to … / A*02:01 (protein)
TCR alpha: TGQNIDQPTEMTATEGAIVQINCTYQTSGFNGLFWYQQHAGEAPTFLSYNVLDGLEEKGRFSSFLSRSKGYSYLLLKELQMKDSASYLCAVRDLGGQKLLFARGTMLKVDLNIQNPDPAVYQLRDSKSSDKSVCLFTDFDSQTNVSQSKDSDVYITDKTVLDMRSMDFKSNSAVAWSNKSDFACANAFNNSIIPEDTFFPSPESSCDVKLVEKSFETDTNLNFQNLSVIGFRILLLKVAGFNLLMTLRLWSS
TCR beta: DAGVTQSPTHLIKTRGQQVTLRCSPKSGHDTVSWYQQALGQGPQFIFQYYEEEERQRGNFPDRFSGHQFPNYSSELNVNALLLGDSALYLCASSLGQGSPAGANVLTFGAGSRLTVLEDLKNVFPPKVAVFEPSEAEISHTQKATLVCLATGFYPDHVELSWWVNGKEVHSGVSTDPQPLKEQPALNDSRYCLSSRLRVSATFWQNPRNHFRCQVQFYGLSENDEWTQDRAKPVTQIVSAEAWGRADCGFTSESYQQGVLSATILYEILLGKATLYAVLVSALVLMAMVKRKDSRG
B10: TCR_56: TCR to … / A*24:02 (protein)
TCR alpha: QTVTQSQPEMSVQEAETVTLSCTYDTSESDYYLFWYKQPPSRQMILVIRQEAYKQQNATENRFSVNFQKAAKSFSLKISDSQLGDAAMYFCAGNTGTASKLTFGTGTRLQVTLDIQNPDPAVYQLRDSKSSDKSVCLFTDFDSQTNVSQSKDSDVYITDKTVLDMRSMDFKSNSAVAWSNKSDFACANAFNNSIIPEDTFFPSPESSCDVKLVEKSFETDTNLNFQNLSVIGFRILLLKVAGFNLLMTLRLWSS
TCR beta: DAGVTQSPTHLIKTRGQQVTLRCSPISGHKSVSWYQQVLGQGPQFIFQYYEKEERGRGNFPDRFSARQFPNYSSELNVNALLLGDSALYLCASSLWGGYTEAFFGQGTRLTVVEDLNKVFPPEVAVFEPSEAEISHTQKATLVCLATGFFPDHVELSWWVNGKEVHSGVSTDPQPLKEQPALNDSRYCLSSRLRVSATFWQNPRNHFRCQVQFYGLSENDEWTQDRAKPVTQIVSAEAWGRADCGFTSVSYQQGVLSATILYEILLGKATLYAVLVSALVLMAMVKRKDF

test system: CD8+ T cells; assay type: cell-based, human; conditions: cells of the TCR clonotype specific for the epitope / HLA class I of the same line

Compared with B1, B2 is lower in “No. of Cells” value: 3 for the first, 2 for the second.

B3 and B4 are the same in “No. of Cells” value: 2 for the first, 2 for the second.

B5 and B6 are the same in “No. of Cells” value: 2 for the first, 2 for the second.

B7 and B8 are the same in “No. of Cells” value: 2 for the first, 2 for the second.

B9 and B10 are the same in “No. of Cells” value: 2 for the first, 2 for the second.
